We go through 1 substance from publication PMC8557913, “Characterization of Phosphopantetheinyl Hydrolase from Mycobacterium tuberculosis” (Microbiology Spectrum, 2021).

The data set deals with O=[N+]([O-])c1ccc(OP(=O)(O)Oc2ccc([N+](=O)[O-])cc2)cc1. The data set can be described thus: purified protein. The settings on record: pH 7.0; 37.0 °C.

In the case of “PptH (Rv2795c) (Mycobacterium tuberculosis H37Rv)”, the Km (usually the substrate concentration at which the rate is half of its maximum) was found to be 17.8 ± 2.8 mM.
